Anti-infective test results gathered from many reports (values: NIAID ChemDB through PubChem).

Shared fields: toxicity to cultured cells; cell line: VERO; measure: CC50

CCn: concentration that lowers growth or viability of the cells by n%. Conditions beyond the fields shown may differ between rows.

SMILES,value
Nc1nc2c(ncn2[C@H]2O[C@@H](CO)[C@H](O)C2(F)F)c(=O)[nH]1,>100 µM
Nc1nc2c(ncn2COC(CO)COP(=O)(O)O)c(=O)[nH]1,700 µM
CCCCOC(=O)c1cc(COc2cc(C(F)(F)F)nc3c(C(F)(F)F)cccc23)on1,105.9 µM
Cc1cn([C@@H]2O[C@H](CO)[C@@H](O)[C@@H]2O)c(=O)[nH]c1=O,360 µM
CC(C)(C)n1cc(C(=O)O)c(=O)c2cc([N+](=O)[O-])c(N3CCn4cc(C(=O)O)nc4C3)cc21,145.9 µM
O=C(CN1c2c(-c3ccccc3)n[nH]c2-c2ccccc2S1(=O)=O)N/N=C/c1ccc([N+](=O)[O-])cc1,50 µM
CCOC(=O)c1cc(COc2ccc3ccccc3n2)on1,>128 µM
Nc1nc2c(ncn2COCCO)c(=O)o1,1000 µM
O=c1[nH]c(=O)n([C@H]2C[C@H](O)[C@@H](CO)O2)cc1I,<0.5 µg/mL
O=C(NCc1ccc(Cl)cc1)c1c[nH]c2ccc(CCCO)cc2c1=O,>100 µM
COc1ncnc2c1ncn2O[C@@H]1CS[C@@H](CO)O1,>100 µg/mL
Nc1nccc2c1ncn2[C@@H]1C[C@H](CO)[C@@H](O)[C@H]1O,>400 µg/mL
CSc1nsc(-c2cccs2)c1C#N,6 µM
O=C(CN1c2c(-c3ccccc3)n[nH]c2-c2ccccc2S1(=O)=O)N/N=C/c1ccc(Cl)cc1Cl,19.1 µM
Nc1ncnc2c1ncn2[C@@H]1O[C@H](CO)[C@](O)(C(F)(F)F)[C@H]1O,>200 µg/mL
O=C(CN1c2c(-c3ccccc3)n[nH]c2-c2ccccc2S1(=O)=O)N/N=C/c1cccc([N+](=O)[O-])c1,53.1 µM
Nc1nc2c(ncn2[C@@H]2O[C@@H](CO)[C@H](O)C2(F)F)c(=O)[nH]1,>100 µM
O=C(O)c1cn(C2CC2)c2cc(N3CCC(O)(c4ccc(Cl)cc4)CC3)c([N+](=O)[O-])cc2c1=O,>137 µM
CCCOC(=O)c1cc(COc2cc(C(F)(F)F)nc3c(C(F)(F)F)cccc23)on1,>128 µM
CC(=O)OCCOCn1cnc2c(=O)oc(N)nc21,600 µM
Cc1ccc(C(=O)CN2CCN(c3cc4c(cc3F)c(=O)c(C(=O)O)cn4C3CC3)CC2)cc1,>10 µg/mL
Cc1cn([C@H]2O[C@@H](CO)[C@H](O)C2(F)F)c(=O)[nH]c1=O,>100 µM
CSc1nsc(-c2ccc(O)cc2)c1C#N,2 µM
O=C(O)c1cn(C2CC2)c2cc(N3CCN(C(c4ccccc4)c4ccc(Cl)cc4)CC3)c(F)cc2c1=O,>117.5 µM
Nc1ncnc2c1ncn2[C@@H]1C[C@H](CO)[C@@H](O)[C@@H]1O,23 µM
CN1CCN(c2cc3c(cc2F)c(=O)c(C(=O)O)cn3C(C)(C)C)CC1c1ccccc1,142.9 µM
CSc1nsc(-c2c(Cl)cccc2Cl)c1C#N,5 µM
CCc1noc(-c2cc(COc3cc(C(F)(F)F)nc4c(C(F)(F)F)cccc34)on2)n1,>128 µM
O=C1NC(NNC(=O)c2ccncc2)=N/C1=C\c1ccc(Cl)cc1,34.51 µg/mL
Nc1nc(=O)n([C@@H]2O[C@@H](CO)[C@H](O)C2(F)F)cc1F,>100 µM
O=C(O)c1cn(C2CC2)c2cc(N3CCC(N4CCCCC4)CC3)c(F)cc2c1=O,>151.1 µM
CSc1nsc(-c2ccc(C)cc2)c1C#N,18 µM
Nc1nc2c(ncn2COC2COP(=O)(O)OC2)c(=O)[nH]1,40 µM
O=c1[nH]c(=O)n([C@H]2O[C@@H](CO)[C@H](O)C2(F)F)cc1Cl,>100 µM
Nc1ncnc2c1ncn2O[C@H]1CO[C@@H](CO)O1,>100 µg/mL
O=c1[nH]c(=O)n([C@H]2O[C@@H](CO)[C@H](O)C2(F)F)cc1Br,>100 µM
CCOC(=O)c1cc(COc2ccnc3ccccc23)on1,>128 µM
O=c1cc(-c2ccc(-c3ccccc3)cc2)oc2ccccc12,510 µg/mL
Nc1nc2c(ncn2O[C@H]2CO[C@@H](CO)O2)c(=O)[nH]1,>100 µg/mL
Nc1nc2c(ncn2COC(CO)CO)c(=O)[nH]1,450 µM
O=c1[nH]cnc2c1ncn2O[C@@H]1CO[C@@H](CO)O1,>100 µg/mL
O=C(CN1c2c(-c3ccccc3)n[nH]c2-c2ccccc2S1(=O)=O)N/N=C/c1c(Cl)cccc1Cl,8 µM
Cc1cn([C@@H]2O[C@H](CO)[C@](O)(C(F)(F)F)[C@H]2O)c(=O)[nH]c1=O,>200 µg/mL
O=C(O)c1cn(C2CC2)c2cc(N3CCN(C/C(=N/O)c4ccc(F)cc4)CC3)c(F)cc2c1=O,>10 µg/mL
COCc1cn([C@H]2C[C@H](O)[C@@H](CO)O2)c(=O)[nH]c1=O,512 µg/mL
CCn1cc(C(=O)O)c(=O)c2cc(F)c(N3CCN(CC(=O)c4ccc(F)cc4)CC3)cc21,>10 µg/mL
CNC(=S)Nc1ccc(-c2n[nH]c(=S)n2C)cc1,<0.371 µg/mL
O=C1NC(NNC(=O)c2ccncc2)=N/C1=C\c1cccc(Cl)c1,>62.5 µg/mL
O=C(OC1COC(=O)c2cc(O)c(O)c(O)c2-c2c(cc(O)c(O)c2O)C(=O)OC1C1OC(=O)c2cc(O)c(O)c(O)c2-c2c(O)c(O)c(O)c3c2C(=O)OC1C3O)c1cc(O)c(O)c(O)c1,89 µM
NNC(=O)CN1c2c(-c3ccccc3)n[nH]c2-c2ccccc2S1(=O)=O,>100 µM
O=c1ccn([C@H]2O[C@@H](CO)[C@H](O)C2(F)F)c(=O)[nH]1,>100 µM
CCOC(=O)c1cc(COc2cc(C(F)(F)F)nc3c(C(F)(F)F)cccc23)on1,>128 µM
O=C(O)c1cn(C2CC2)c2cc(N3CCN(C/C(=N/O)c4ccccc4)CC3)c(F)cc2c1=O,>10 µg/mL
O=C(O)c1cn(C2CC2)c2cc(N3CCN(Cc4ccc5c(c4)OCO5)CC3)c(F)cc2c1=O,>134.3 µM
O=C1NC(NNC(=O)c2ccncc2)=N/C1=C\c1ccccc1Cl,48.56 µg/mL
O=C(c1cc(COc2cc(C(F)(F)F)nc3c(C(F)(F)F)cccc23)on1)N1CCCCO1,>128 µM

For reference, 5 entries again:

SMILES,value
O=C1NC(NNC(=O)c2ccncc2)=N/C1=C\c1ccccc1Cl,48.56 µg/mL
CCn1cc(C(=O)O)c(=O)c2cc(F)c(N3CCN(CC(=O)c4ccc(F)cc4)CC3)cc21,>10 µg/mL
Nc1nc2c(ncn2COC(CO)CO)c(=O)[nH]1,450 µM
O=c1ccn([C@H]2O[C@@H](CO)[C@H](O)C2(F)F)c(=O)[nH]1,>100 µM
O=C(O)c1cn(C2CC2)c2cc(N3CCC(N4CCCCC4)CC3)c(F)cc2c1=O,>151.1 µM